Assay results as given in patent publication US20020192774A1, “Method for processing lignocellulosic material” (priority 2000, published 2002).

Tests used:
Saccharomyces cerevisiae = assay: Potential fermentation inhibitors during S. cerevisiae fermentation of wet oxidised wheat straw medium; details: for concentration at S. cerevisiae, end / T. mathranii, start: after five days at 30° C., pH 6.0; for concentration at S. cerevisiae, start: wet oxidised wheat straw medium 60 g/l straw, before yeast fermentation; for metabolised by S. cerevisiae: mesophilic hexose fermentation step, in words
[1] = test system: consortium of thermophilic methanogenic Archaea; assay: Thermophilic anaerobic wastewater treatment (methane production) of ethanol fermentation effluent; details: after anaerobic wastewater treatment at 55° C.
[2] = test system: Thermoanaerobacter mathranii A3M4; assay: Potential fermentation inhibitors during T. mathranii A3M4 fermentation of wet oxidised wheat straw medium; details: after five days at 70° C., pH 6.8

Row | SMILES | concentration at S. cerevisiae, end / T. mathranii, start (Saccharomyces cerevisiae) [mg/L] | concentration at S. cerevisiae, start (Saccharomyces cerevisiae) [mg/L] | concentration at Ww-treatment, end [1] [mg/L] | concentration at T. mathranii, end / Ww-treatment, start [2] [mg/L] | metabolised by S. cerevisiae (Saccharomyces cerevisiae)
1 | COc1cccc(OC)c1O [Syringol] | 2.8 | 2.3 | 0.0 |  | 
2 | CC(=O)O [Acetic acid] | 23.0 | 23.5 | 1.8 |  | 
3 | COc1cc(/C=C/C(=O)O)ccc1O [ferulic acid] | 3.4 | 2.1 | 0.2 | 3.0 | 
4 | COc1cc(C(C)=O)ccc1O [Acetovanillione] | 5.0 | 5.0 | 0.2 |  | 
5 | O=C(O)/C=C/c1ccc(O)cc1 [p-coumaric acid] | 5.1 | 5.0 | 0.0 | 4.7 | 
6 | COc1cc(C(=O)O)ccc1O [Vanillic acid] | 31.2 | 32.3 | 0.1 | 30.6 | 
7 | O=C(O)c1ccc(O)cc1 [4-hydroxybenzoic acid] | 22.8 | 23.7 | 0.0 |  | 
8 | O=C(O)c1ccco1 [2-Furoic acid] | 6.2 | 7.2 | 0.0 | 6.5 | 
9 | COc1ccccc1O [guaiacol] | 8.0 | 8.5 | 0.0 | 8.2 | 
10 | COc1cc(C=O)ccc1O [vanillin] | 1.9 | 10.6 | 0.1 | 1.1 | almost completely metabolised
11 | CC(=O)c1ccc(O)cc1 [4-hydroxy acetophenone] | 2.5 | 2.8 | 0.2 | 2.7 | 
12 | O=Cc1ccc(O)cc1 [4-hydroxybenzaldehyde] | 0.9 | 13.7 | 0.0 | 0.6 | almost completely metabolised
13 | COc1cc(C(C)=O)cc(OC)c1O [Acetosyringone, 4-hydroxy-3,5dimethoxyacetophenone] | 19.0 | 17.4 | 1.9 |  | 
